Experiments:
[1] = tested on: Mus musculus; assay: Toxicity in mouse allografted with mouse L1210 cells at 500 mg/kg, ip; format: organism-based; parameters: dose 500 mg/kg, route intraperitoneal; settings: in vivo
How it was run: (§1)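 Female or male mice bearing L1210 lymphoid leukemia were tested under the NCI standard protocol. Dosing was ip, day 1 only, in aqueous Tween-80, at halved doses starting at 500 mg/kg and generally ending at 62.5 mg/kg. Mean survival time was assessed on day 30, and T/C ≥125% was taken as active.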

[2] = tested on: Mus musculus; assay: Toxicity in ip dosed mouse allografted with mouse L1210 cells; format: organism-based; settings: in vivo; how it was run: as §1

| Structure (SMILES) | Activity [1] | MTD [2] [mg/kg] |
| --- | --- | --- |
| Cc1ccc(NP(=O)(Cl)N(CCCl)CCCl)cc1 (configuration not stated) | Non-toxic | – |
| NP(=O)(Oc1ccc([N+](=O)[O-])cc1)N(CCCl)CCCl (configuration not stated) | – | 62.5 |
